Pooled drug test results. Numbers come from NIAID ChemDB, via PubChem.

Shared fields: growth or infection tests; species: HIV-1

Two numbers with a dash give a range or band. Blank or dashed fields: not listed here. ECn: concentration that inhibits the pathogen or its effect by n%. Lines come from different laboratories, so protocols vary.

compound	cell line	strain or isolate	read by	changes	endpoint	value
CC(C)C1=C2[C@H]3CC[C@@H]4[C@@]5(C)CC[C@H](OC(=O)[C@H]6C[C@@H](C(=O)O)C6(C)C)C(C)(C)[C@@H]5CC[C@@]4(C)[C@]3(C)CC[C@@]2(CC(=O)NCC2CCC2)CC1=O	MT-2	92HT599	p24 / ELISA		EC50	<1 µM
CN1CCn2c(nc(C(=O)NCc3ccc(F)cc3)c(O)c2=O)C(NS(C)(=O)=O)C1	MT-4		p24		EC50	<50 µM
CC(C)C1=C2[C@H]3CC[C@@H]4[C@@]5(C)CC[C@H](OC(=O)[C@H]6C[C@@H](C(=O)O)C6(C)C)C(C)(C)[C@@H]5CC[C@@]4(C)[C@]3(C)CC[C@@]2(CCNCC(C)(C)NC(=O)c2ccc(Cl)cc2OCCN(C)C)CC1=O	MT-2	92HT599	p24 / ELISA		EC50	<1 µM
Cn1ccc(CN2CCn3c(nc(C(=O)NCc4ccc(F)cc4)c(O)c3=O)C2(C)C)n1	MT-4		p24		EC50	<1 µM
CC(=O)[C@H](C)OC(C(=O)O)c1c(C)nc2ccc(Br)cc2c1-c1ccc(Cl)cc1	C8166		luciferase / reporter gene		EC50	<20 µM
C[C@@H]1CN(C(=O)c2ccccc2)CCN1C(=O)C(=O)c1c[nH]c2cccc(F)c12	HeLa + HELA CD4+/CCR5		luciferase		EC50	<10 µM
CCCC(C(=O)O)c1c(C)nc2ccc(Cl)cc2c1-c1ccc(CC#N)cc1	C8166		luciferase / reporter gene		EC50	<20 µM
CC(C)C1=C2[C@H]3CC[C@@H]4[C@@]5(C)CC[C@H](OC(=O)[C@H]6C[C@@H](C(=O)O)C6(C)C)C(C)(C)[C@@H]5CC[C@@]4(C)[C@]3(C)CC[C@@]2(CCNC(=O)c2ccc(O[C@@H]3CCOC3)cc2)CC1=O	MT-2	92HT599	p24 / ELISA		EC50	<1 µM
CN(C)C(=O)C(=O)N(C)C1CN(C2CC2)CCn2c1nc(C(=O)NCc1ccc(F)c(Cl)c1)c(O)c2=O	MT-4		p24		EC50	<1 µM
CCN1c2ncc(CCOc3ccc(-n4cc(C(=O)O)nn4)cc3C)cc2C(=O)N(C)c2cccnc21	C8166	IIIB	p24		EC50	>0.05 µM
COc1ccnc2[nH]cc(C(=O)C(=O)N3C4CCCC3CN(C(=O)c3ccccc3)C4)c12	TZM-bl	ZM214	luciferase		EC99	89 µM
COC[C@@H](c1ccc(C(F)(F)F)cc1)N1CCN(C2(C)CCN(C(=O)c3c(C)ncnc3C)CC2)C[C@@H]1C	TZM-bl	R14			EC50	0.0037 µM
Cc1cn(-c2ccc(CNCC[C@@]34CC[C@]5(C)[C@H](CC[C@@H]6[C@@]7(C)CC[C@H](OC(=O)[C@H]8C[C@@H](C(=O)O)C8(C)C)C(C)(C)[C@@H]7CC[C@]65C)C3=C(C(C)C)C(=O)C4)cc2)cn1	MT-2	92HT599	p24 / ELISA		EC50	<1 µM
COc1ccc(S(=O)(=O)N(CC2CCCC2)C[C@@H](O)CN(CCc2ccccc2)C(=O)O[C@H]2CCOC2)cc1	CEM	IIIB	p24		EC90	0.1 µM
O=C(O)c1cc(-n2cccc2)ccc1Cl	PBMC + MT-2	93BR020 X4R5 CLADE F	p24		EC90	8.55 µM
Cc1nc2ccc(Cl)cc2c(-c2ccc3cc[nH]c3c2)c1C(OC(C)C)C(=O)O	C8166		luciferase / reporter gene		EC50	<20 µM
C[C@@H]1CN(C(=O)c2cccc(N)c2)CCN1C(=O)C(=O)c1c[nH]c2c(F)ccc(F)c12	HeLa + HELA CD4+/CCR5		luciferase		EC50	<10 µM
CCN1c2ncc(CCOc3ccc(C(=O)N=c4ccn(O)cc4)cc3C)cc2C(=O)N(C)c2cccnc21	C8166		p24	RT-K103N Y181C	EC50	<0.01 µM
O=C1Nc2ccc(Cl)cc2[C@@](/C=C/C2CC2)(C(F)(F)F)N1				RT-P225H	EC90	<0.012 µM
COC(=O)c1cccc2c(C(=O)C(=O)N3CCN(C(=O)c4ccccc4)C[C@@H]3C)c[nH]c12	HeLa + HELA CD4+/CCR5		luciferase		EC50	<10 µM
CC1(C)c2nc(C(=O)NCc3ccc(F)cc3)c(O)c(=O)n2CCN1Cc1cn[nH]n1	MT-4		p24		EC95	<1 µM
CC(C)C1=C2[C@H]3CC[C@@H]4[C@@]5(C)CC[C@H](OC(=O)[C@H]6C[C@@H](C(=O)O)C6(C)C)C(C)(C)[C@@H]5CC[C@@]4(C)[C@]3(C)CC[C@@]2(CC(=O)NCC(C)(C)NC(=O)c2nccs2)CC1=O	MT-2	92HT599	p24 / ELISA		EC50	<1 µM
CN(C)C(=O)C(=O)N(C)C1COCCn2c1nc(C(=O)NCc1ccc(F)cc1)c(O)c2=O	MT-4		p24		EC50	<1 µM
O=C1Nc2ccc(F)c(F)c2[C@@](/C=C/C2CC2)(C(F)(F)F)N1				RT-Y188C	EC90	<0.012 µM
CC(=O)Oc1cc2[nH]cc(C(=O)C(=O)N3CCN(C(=O)c4ccccc4)CC3)c2cc1OC(C)=O	MT-2	BRU	RT activity		EC50	>10 µM
COc1ccc(S(=O)(=O)N(CC(C)C)CC(O)C(=O)N2CSC[C@H]2C(=O)NC(C)(C)C)cc1	CEM	IIIB	p24		EC90	1 µM
COc1ccc(F)c2c(C(=O)C(=O)N3CCN(C(=O)c4ccc(N)cc4)C[C@H]3C)c[nH]c12	HeLa + HELA CD4+/CCR5		luciferase		EC50	<10 µM
CCCC(C(=O)O)c1c(C)nc2ccc(Cl)cc2c1-c1ccc2c(ccn2C)c1	C8166		luciferase / reporter gene		EC50	<20 µM
CCN1c2ncc(CCOc3ccc(-c4ccc(CC(=O)O)cc4OC)cc3C)cc2C(=O)N(C)c2cccnc21	C8166		p24	RT-K103N Y181C	EC50	0.01–0.05 µM
CCCc1cc(=O)oc2c3c(c4c(c12)OC(C)(C)CC4)O[C@@H](C)[C@H](C)[C@@H]3O	PBMC	SLKA(SI)	RT activity		EC50	0.3 µM
O=C(O)CN1CCn2c(nc(C(=O)NCc3ccc(F)cc3)c(O)c2=O)C1	MT-4		p24		EC95	<50 µM
O=C(C(=O)N1CCN(C(=O)c2cscn2)CC1)c1c[nH]c2cccc(F)c12	HeLa + HELA CD4+/CCR5		luciferase		EC50	<10 µM
CCN1c2ncc(CCOc3ccc(-c4ccc(N)c(C(=O)O)c4)cc3C)cc2C(=O)N(C)c2cccnc21	C8166		p24	RT-K103N Y181C	EC50	<0.01 µM
COc1ccnc2[nH]cc(C(=O)C(=O)N3C4CCC3CN(C(=O)c3ccccc3)C4)c12	TZM-bl	6535	luciferase		EC90	1.4 µM
COc1ccc(S(=O)(=O)N(CC2CCCC2)C[C@@H](O)CN(CCc2ccc(O)c(O)c2)C(=O)O[C@H]2CCOC2)cc1	CEM	IIIB	p24		EC90	0.1 µM
CCc1ccc(-c2c(C(OC3CCCC3)C(=O)O)c(C)nc3ccc(Cl)cc23)cc1	C8166		luciferase / reporter gene		EC50	<20 µM
O=C(c1ccccc1)N(CCc1ccccc1)C[C@H](O)CN(CC1CCCC1)S(=O)(=O)CC1CS(=O)(=O)CC1O	CEM	IIIB	p24		EC90	1 µM
Nc1nc(NC2CC2)c2ncn([C@H]3C=C[C@@H](CO)C3)c2n1	MT-2	Clinical isolate	recombinant virus assay	M41LK67N/K70R/M184V/L210W/T215Y/K219E	EC50	0.6072 µM
COC(=O)c1cccc2c(C(=O)C(=O)N3CCN(C(=O)c4ccccc4)C(C(C)C)C3)c[nH]c12	HeLa + HELA CD4+/CCR5		luciferase		EC50	<10 µM
CCCC(C(=O)O)c1c(C)nc2ccc(Cl)cc2c1-c1ccc(SC)cc1	C8166		luciferase / reporter gene		EC50	<20 µM
COc1ccc(S(=O)(=O)N(CC(C)C)C[C@@H](O)CCN(CC2CCCC2)S(=O)(=O)Cc2cc[nH]c2)cc1	CEM	IIIB	p24		EC90	1 µM
CC(C)C1=C2[C@H]3CC[C@@H]4[C@@]5(C)CC[C@H](OC(=O)[C@H]6C[C@@H](C(=O)O)C6(C)C)C(C)(C)[C@@H]5CC[C@@]4(C)[C@]3(C)CC[C@@]2(CCNC(=O)C2CCCCC2)CC1=O	MT-2	92HT599	p24 / ELISA		EC50	<1 µM
C[C@H](Cn1cnc2c(N)ncnc21)OCP(=O)(O)O	MT-2	Clinical isolate	recombinant virus assay	D67N/T69N/K70R/A98G/M184V/G190S/T215F/K219Q	EC50	0.0056 µM
CCCC(C(=O)O)c1c(-c2ccc(Cl)cc2)c2cc(Cl)ccc2[nH]c1=O	C8166		luciferase / reporter gene		EC50	<20 µM
CC(C)(C)CS(=O)(=O)N(CC1CCCC1)C[C@@H](O)CN(CCc1ccccc1)C(=O)c1ccccc1	CEM	IIIB	p24		EC50	<1 µM
COP(=O)(c1cc(C)cc(CCC#N)c1)c1c(C(N)=O)[nH]c2ccc(Cl)c(F)c12	MT-4	BH10	cytopathic effect	Y181C	EC50	0.0018 µM

4 of the rows above, restated:

compound,cell line,strain or isolate,read by,changes,endpoint,value
COc1ccc(F)c2c(C(=O)C(=O)N3CCN(C(=O)c4ccc(N)cc4)C[C@H]3C)c[nH]c12,HeLa + HELA CD4+/CCR5,,luciferase,,EC50,<10 µM
CCCC(C(=O)O)c1c(-c2ccc(Cl)cc2)c2cc(Cl)ccc2[nH]c1=O,C8166,,luciferase / reporter gene,,EC50,<20 µM
CC(C)C1=C2[C@H]3CC[C@@H]4[C@@]5(C)CC[C@H](OC(=O)[C@H]6C[C@@H](C(=O)O)C6(C)C)C(C)(C)[C@@H]5CC[C@@]4(C)[C@]3(C)CC[C@@]2(CC(=O)NCC(C)(C)NC(=O)c2nccs2)CC1=O,MT-2,92HT599,p24 / ELISA,,EC50,<1 µM
C[C@@H]1CN(C(=O)c2ccccc2)CCN1C(=O)C(=O)c1c[nH]c2cccc(F)c12,HeLa + HELA CD4+/CCR5,,luciferase,,EC50,<10 µM